Reference: US20230233533A1, “COMPOSITIONS, METHODS OF TREATING AND PREVENTING FUNGAL INFECTIONS, AND METHODS OF INHIBITING PRP8 INTEIN EXPRESSION” (Health Research, Inc., priority 2020, published 2023)

Test system: C. neoformans H99 strain
Assay: Fungal susceptibility test, broth microdilution MIC
Assay type: cell-based, Cryptococcus neoformans
Settings: CC50 A549 / MIC C. neoformans
Method: Fungal susceptibility test—The fungal susceptibility test was carried out with a compound concentration series as described. […] The broth microdilution method was used to determine the compound MIC values against C. neoformans.
Fungal susceptibility test—The fungal susceptibility test was carried out with a compound concentration series as described. […] Microbes. Infect. […] The broth microdilution method was used to determine the compound MIC values against C. neoformans.

| Structure (SMILES) | TI, therapeutic index (CC50/MIC) |
| --- | --- |
| O=C(Nc1ccc(Br)cc1)c1nnsc1S(=O)(=O)c1ccc(Cl)cc1 [JMX1034, N-(4-Bromophenyl)-5-((4-chlorophenyl)sulfonyl)-1,2,3-thiadiazole-4-carboxamide] | <1.7 |
| O=C(Nc1ccccc1)c1nnsc1S(=O)(=O)c1ccc(Cl)cc1 [JMX1035, 5-((4-Chlorophenyl)sulfonyl)-N-phenyl-1,2,3-thiadiazole-4-carboxamide] | 13.5 |
| O=C(Nc1cc(F)cc(Cl)c1)c1nnsc1S(=O)(=O)c1ccc(Cl)cc1 [JMX1036, N-(3-Chloro-5-fluorophenyl)-5-((4-chlorophenyl)sulfonyl)-1,2,3-thiadiazole-4-carboxamide] | 45.4 |
| O=C(Nc1ccc(F)c(Cl)c1)c1nnsc1S(=O)(=O)c1ccc(Cl)cc1 [JMX1037, N-(3-Chloro-4-fluorophenyl)-5-((4-chlorophenyl)sulfonyl)-1,2,3-thiadiazole-4-carboxamide] | 2.5 |
| O=C(Nc1cc(F)cc(F)c1)c1nnsc1S(=O)(=O)c1ccc(Cl)cc1 [JMX1038, 5-((4-Chlorophenyl)sulfonyl)-N-(3,5-difluorophenyl)-1,2,3-thiadiazole-4-carboxamide] | <1.1 |
| O=C(Nc1cc(F)cc(C(F)(F)F)c1)c1nnsc1S(=O)(=O)c1ccc(Cl)cc1 [JMX1040, 5-((4-chlorophenyl)sulfonyl)-N-(3-fluoro-5-(trifluoromethyl)phenyl)-1,2,3-thiadiazole-4-carboxamide] | 18.1 |
| O=C(Nc1cc(C(F)(F)F)cc(C(F)(F)F)c1)c1nnsc1S(=O)(=O)c1ccc(Cl)cc1 [JMX1041, N-(3,5-Bis(trifluoromethyl)phenyl)-5-((4-chlorophenyl)sulfonyl)-1,2,3-thiadiazole-4-carboxamide] | <1.3 |
| O=C(Nc1ccc(C(F)(F)F)cc1Cl)c1nnsc1S(=O)(=O)c1ccc(Cl)cc1 [JMX1042, N-(2-Chloro-4-(trifluoromethyl)phenyl)-5-((4-chlorophenyl)sulfonyl)-1,2,3-thiadiazole-4-carboxamide] | <2.0 |
| O=C(Nc1ccc([N+](=O)[O-])cc1F)c1nnsc1S(=O)(=O)c1ccc(Cl)cc1 [JMX1043, 5-((4-Chlorophenyl)sulfonyl)-N-(2-fluoro-4-nitrophenyl)-1,2,3-thiadiazole-4-carboxamide] | <1.3 |
| O=C(Nc1cc(F)c(F)c(F)c1)c1nnsc1S(=O)(=O)c1ccc(Cl)cc1 [JMX1044, 5-((4-Chlorophenyl)sulfonyl)-N-(3,4,5-trifluorophenyl)-1,2,3-thiadiazole-4-carboxamide] | 1.0 |
| O=C(Nc1cc(F)c(F)c(F)c1)c1nnsc1[S+]([O-])c1ccc(Cl)cc1 (stereo not drawn) [JMX1044-2, 5-((4-Chlorophenyl)sulfinyl)-N-(3,4,5-trifluorophenyl)-1,2,3-thiadiazole-4-carboxamide] | 1.0 |
| O=C(Nc1c(F)cc(F)cc1F)c1nnsc1S(=O)(=O)c1ccc(Cl)cc1 [JMX1045, 5-((4-Chlorophenyl)sulfonyl)-N-(2,4,6-trifluorophenyl)-1,2,3-thiadiazole-4-carboxamide] | 1.0 |
| O=C(Nc1c(F)cc(F)cc1F)c1nnsc1[S+]([O-])c1ccc(Cl)cc1 (stereo not drawn) [JMX1045-2, 5-((4-Chlorophenyl)sulfinyl)-N-(2,4,6-trifluorophenyl)-1,2,3-thiadiazole-4-carboxamide] | 19.6 |
| O=C(Nc1ccc(Cl)c(F)c1)c1nnsc1S(=O)(=O)c1ccc(Cl)cc1 [JMX1046, N-(4-Chloro-3-fluorophenyl)-5-((4-chlorophenyl)sulfonyl)-1,2,3-thiadiazole-4-carboxamide] | <2.9 |
| O=C(Nc1ccc(Cl)c(F)c1)c1nnsc1[S+]([O-])c1ccc(Cl)cc1 (stereo not drawn) [JMX1046-2, N-(4-Chloro-3-fluorophenyl)-5-((4-chlorophenyl)sulfinyl)-1,2,3-thiadiazole-4-carboxamide] | 95.7 |
| O=C(Nc1ccc(F)cc1)c1nnsc1S(=O)(=O)c1ccc(Cl)cc1Cl [JMX1059, 5-((2,4-Dichlorophenyl)sulfonyl)-N-(4-fluorophenyl)-1,2,3-thiadiazole-4-carboxamide] | 5.4 |
| O=C(Nc1ccc(F)cc1)c1nnsc1S(=O)(=O)c1ccc(F)c(F)c1 [JMX1060, 5-((3,4-Difluorophenyl)sulfonyl)-N-(4-fluorophenyl)-1,2,3-thiadiazole-4-carboxamide] | 1.2 |
| O=C(Nc1ccc(F)cc1)c1nnsc1S(=O)(=O)c1ccc(F)cc1 [JMX1061, N-(4-Fluorophenyl)-5-((4-fluorophenyl)sulfonyl)-1,2,3-thiadiazole-4-carboxamide] | <1.4 |
| O=C(Nc1ccc(F)cc1)c1nnsc1S(=O)(=O)c1ccc(F)cc1F [JMX1062, 5-((2,4-Difluorophenyl)sulfonyl)-N-(4-fluorophenyl)-1,2,3-thiadiazole-4-carboxamide] | <1.3 |
| O=C(Nc1ccc(F)cc1)c1nnsc1S(=O)(=O)c1cccc(C(F)(F)F)c1 [JMX1063, N-(4-Fluorophenyl)-5-((3-(trifluoromethyl)phenyl)sulfonyl)-1,2,3-thiadiazole-4-carboxamide] | 21.9 |
| O=C(Nc1ccc(F)cc1)c1nnsc1[S+]([O-])c1cccc(C(F)(F)F)c1 (stereo not drawn) [JMX1063-2, N-(4-Fluorophenyl)-5-((3-(trifluoromethyl)phenyl)sulfinyl)-1,2,3-thiadiazole-4-carboxamide] | 15.0 |
| O=C(Nc1ccc(F)cc1)c1nnsc1S(=O)(=O)c1ccc(Cl)c(Cl)c1 [JMX1064, 5-((3,4-Dichlorophenyl)sulfonyl)-N-(4-fluorophenyl)-1,2,3-thiadiazole-4-carboxamide] | 50.1 |
| O=C(Nc1ccc(F)cc1)c1nnsc1[S+]([O-])c1ccc(Cl)c(Cl)c1 (stereo not drawn) [JMX1064-2, 5-((3,4-Dichlorophenyl)sulfinyl)-N-(4-fluorophenyl)-1,2,3-thiadiazole-4-carboxamide] | <2.4 |
| O=C(Nc1cccc(F)c1)c1nnsc1S(=O)(=O)c1ccc(Cl)cc1 [JMX 871, 5-((4-Chlorophenyl)sulfonyl)-N-(3-fluorophenyl)-1,2,3-thiadiazole-4-carboxamide] | 44.9 |
